System: pLAI reporter virus
Assay type: cell-based, HIV
Settings: EC50 (50% HS)/EC50 (CCM)

SMILES	RLUC 50% HS Shift
C[C@H]1CC[C@]2(CC(=O)N(Cc3ccc4ncsc4c3)O2)[C@H]2CN1C(=O)c1c(O)c(=O)c(C(=O)NCc3c(F)cc(F)cc3F)cn12 [Example 112, (3′S,5S,7′R)-2-(benzo[d]thiazol-6-ylmethyl)-12′-hydroxy-3′-methyl-1′,3,11′-trioxo-N-(2,4,6-trifluorobenzyl)-1′,4′,5′,11′-tetrahydro-3′H,7′H-spiro[isoxazolidine-5,6′-[2,7]methanopyrido[1,2-a][1,4]diazonine]-10′-carboxamide]	2×
C[C@H]1CC[C@]2(CC(=O)N(Cc3ccc4scnc4c3)O2)[C@H]2CN1C(=O)c1c(O)c(=O)c(C(=O)NCc3c(F)cc(F)cc3F)cn12 [Example 113, (3′S,5S,7′R)-2-(benzo[d]thiazol-5-ylmethyl)-12′-hydroxy-3′-methyl-1′,3,11′-trioxo-N-(2,4,6-trifluorobenzyl)-1′,4′,5′,11′-tetrahydro-3′H,7′H-spiro[isoxazolidine-5,6′-[2,7]methanopyrido[1,2-a][1,4]diazonine]-10′-carboxamide]	7×
C[C@H]1CC[C@]2(CC(=O)N(Cc3cccc4[nH]cnc34)O2)[C@H]2CN1C(=O)c1c(O)c(=O)c(C(=O)NCc3c(F)cc(F)cc3F)cn12 [Example 114, (3′S,5S,7′R)-2-((1H-benzo[d]imidazol-4-yl)methyl)-12′-hydroxy-3′-methyl-1′,3,11′-trioxo-N-(2,4,6-trifluorobenzyl)-1′,4′,5′,11′-tetrahydro-3′H,7′H-spiro[isoxazolidine-5,6′-[2,7]methanopyrido[1,2-a][1,4]diazonine]-10′-carboxamide]	3×
C[C@H]1CC[C@]2(CC(=O)N(Cc3ccc(C#N)cc3)O2)[C@H]2CN1C(=O)c1c(O)c(=O)c(C(=O)NCc3c(F)cc(F)cc3F)cn12 [Example 118, (3′S,5S,7′R)-2-(4-cyanobenzyl)-12′-hydroxy-3′-methyl-1′,3,11′-trioxo-N-(2,4,6-trifluorobenzyl)-1′,4′,5′,11′-tetrahydro-3′H,7′H-spiro[isoxazolidine-5,6′-[2,7]methanopyrido[1,2-a][1,4]diazonine]-10′-carboxamide]	1×
COc1ccc(CN2O[C@@]3(CC[C@H](C)N4C[C@H]3n3cc(C(=O)NCc5c(F)cc(F)cc5F)c(=O)c(O)c3C4=O)CC2=O)cc1 [Example 119, (3′S,5S,7′R)-12′-hydroxy-2-(4-methoxybenzyl)-3′-methyl-1′,3,11′-trioxo-N-(2,4,6-trifluorobenzyl)-1′,4′,5′,11′-tetrahydro-3′H,7′H-spiro[isoxazolidine-5,6′-[2,7]methanopyrido[1,2-a][1,4]diazonine]-10′-carboxamide]	5×
C[C@H]1CC[C@]2(CCC(=O)N2)[C@H]2CN1C(=O)c1c(O)c(=O)c(C(=O)NCc3c(F)cc(F)cc3F)cn12 [Example 121, (2S,3′S,7′R)-12′-hydroxy-3′-methyl-1′,5,11′-trioxo-N-(2,4,6-trifluorobenzyl)-1′,4′,5′,11′-tetrahydro-3′H,7′H-spiro[pyrrolidine-2,6′-[2,7]methanopyrido[1,2-a][1,4]diazonine]-10′-carboxamide]	1×
C[C@H]1CC[C@]2(CCCN2)[C@H]2CN1C(=O)c1c(O)c(=O)c(C(=O)NCc3c(F)cc(F)cc3F)cn12 [Example 122, (2R,3′S,7′R)-12′-hydroxy-3′-methyl-1′,11′-dioxo-N-(2,4,6-trifluorobenzyl)-1′,4′,5′,11′-tetrahydro-3′H,7′H-spiro[pyrrolidine-2,6′-[2,7]methanopyrido[1,2-a][1,4]diazonine]-10′-carboxamide]	8×
C[C@H]1CC[C@@]2(CC(O)CO2)[C@H]2CN1C(=O)c1c(O)c(=O)c(C(=O)NCc3c(F)cc(F)cc3F)cn12 (stereo partly drawn) [Example 123, (2R,3′S,7′R)-4,12′-dihydroxy-3′-methyl-1′,11′-dioxo-N-(2,4,6-trifluorobenzyl)-1′,4,4′,5,5′,11′-hexahydro-3H,3′H,7′H-spiro[furan-2,6′-[2,7]methanopyrido[1,2-a][1,4]diazonine]-10′-carboxamide]	1×
CC1C[C@@]2(CC[C@H](C)N3C[C@H]2n2cc(C(=O)NCc4c(F)cc(F)cc4F)c(=O)c(O)c2C3=O)OCO1 (stereo partly drawn) [Example 124, (3′S,4R,7′R)-12′-hydroxy-3′,6-dimethyl-1′,11′-dioxo-N-(2,4,6-trifluorobenzyl)-1′,4′,5′,11′-tetrahydro-3′H,7′H-spiro[[1,3]dioxane-4,6′-[2,7]methanopyrido[1,2-a][1,4]diazonine]-10′-carboxamide]	2×
C[C@H]1CCC2(OCCO2)[C@H]2CN1C(=O)c1c(O)c(=O)c(C(=O)NCc3c(F)cc(F)cc3F)cn12 [Example 125, (3′S,7′R)-12′-hydroxy-3′-methyl-1′,11′-dioxo-N-(2,4,6-trifluorobenzyl)-1′,4′,5′,11′-tetrahydro-3′H,7′H-spiro[[1,3]dioxolane-2,6′-[2,7]methanopyrido[1,2-a][1,4]diazonine]-10′-carboxamide]	151×
C[C@H]1CO[C@]2(CC[C@H](C)N3C[C@H]2n2cc(C(=O)NCc4c(F)cc(F)cc4F)c(=O)c(O)c2C3=O)O1 [Example 127, (2R,3′S,4S,7′R)-12′-hydroxy-3′,4-dimethyl-1′,11′-dioxo-N-(2,4,6-trifluorobenzyl)-1′,4′,5′,11′-tetrahydro-3′H,7′H-spiro[[1,3]dioxolane-2,6′-[2,7]methanopyrido[1,2-a][1,4]diazonine]-10′-carboxamide]	133×
C[C@H]1CCC2(OCCCO2)[C@H]2CN1C(=O)c1c(O)c(=O)c(C(=O)NCc3c(F)cc(F)cc3F)cn12 [Example 128, (3′S,7′R)-12′-hydroxy-3′-methyl-1′,11′-dioxo-N-(2,4,6-trifluorobenzyl)-1′,4′,5′,11′-tetrahydro-3′H,7′H-spiro[[1,3]dioxane-2,6′-[2,7]methanopyrido[1,2-a][1,4]diazonine]-10′-carboxamide]	92×
C[C@H]1CCC2(OCCO2)[C@H]2CN1C(=O)c1c(O)c(=O)c(C(=O)NCc3ccc(F)cc3F)cn12 [Example 129, (3′S,7′R)—N-(2,4-difluorobenzyl)-12′-hydroxy-3′-methyl-1′,11′-dioxo-1′,4′,5′,11′-tetrahydro-3′H,7′H-spiro[[1,3]dioxolane-2,6′-[2,7]methanopyrido[1,2-a][1,4]diazonine]-10′-carboxamide]	40×
C[C@H]1CC[C@]2(COCO2)[C@H]2CN1C(=O)c1c(O)c(=O)c(C(=O)NCc3c(F)cc(F)cc3F)cn12 [Example 130, (3′S,4R,7′R)-12′-hydroxy-3′-methyl-1′,11′-dioxo-N-(2,4,6-trifluorobenzyl)-1′,4′,5′,11′-tetrahydro-3′H,7′H-spiro[[1,3]dioxolane-4,6′-[2,7]methanopyrido[1,2-a][1,4]diazonine]-10′-carboxamide]	1815×

From patent publication US20250115620A1, “BRIDGED TRICYCLIC CARBAMOYLPYRIDONE COMPOUNDS AND USES THEREOF” (Gilead Sciences, Inc., priority 2022, published 2025)
